Compound potency records, mixed from different reports. Data source: NIAID ChemDB in PubChem.

Shared fields: tests on isolated targets

An empty or dashed field is not shown.

structure | dose | measure | agent | method | protein | changes | result
O=c1c(-c2nccs2)cn2ccn(Cc3ccc(F)cc3)c(=O)c2c1O |  | IC50 | HIV-1 | ELISA | Integrase |  | <0.01 µM
COc1ccc(S(=O)(=O)O)cc1N=Nc1c(S(=O)(=O)O)cc2cc(Nc3nc(Nc4ccccc4)nc(Nc4cc(C)c(N=Nc5cc(S(=O)(=O)O)cc6cc(S(=O)(=O)O)cc(O)c56)cc4OC)n3)ccc2c1O | 2.5 µg/mL | inhibition | HIV-1 | ELISA | gp41 |  | 90%
COC(=O)NCCCCC(C)(C)CN(C[C@@H](O)[C@H](Cc1ccccc1)NC(=O)O[C@H]1CO[C@H]2OCC[C@H]21)S(=O)(=O)c1cccc2c1OCO2 |  | Ki | HIV-1 | fluorescence | Protease |  | <0.001 µM
COc1ccc(-c2cc(=O)c3c(O)c(OC)c(OC)cc3o2)cc1 | 100 µM | inhibition | HIV-1 | RNase H / fluorescence | RNase H |  | 20%
CC(C)(CCCN=C(NC#N)Oc1ccccc1)CN(C[C@@H](O)[C@H](Cc1ccccc1)NC(=O)O[C@H]1CO[C@H]2OCC[C@H]21)S(=O)(=O)c1ccc2c(c1)OCO2 |  | Ki | HIV-1 | fluorescence | Protease |  | <0.001 µM
COCOCC1=C2[C@H](CO[C@@H]3O[C@@H](CO)[C@@H](O)[C@H](O)[C@@H]3OCOC)C[C@@H](C)[C@]3(C[C@@H](c4ccoc4)OC3=O)[C@H]2CCC1 | 100 µM | inhibition | HIV-1 | RNase H / luminescence | RNase H |  | 26%
CC(C)C(=O)Nc1cn2c(c(O)c1=O)C(=O)N(Cc1ccc(F)c(Cl)c1)CC2 |  | IC50 | HIV-1 | ELISA | Integrase |  | 0.01–0.1 µM
C/C(CCC(C)(C)CN(C[C@@H](O)[C@H](Cc1ccccc1)NC(=O)O[C@H]1CO[C@H]2OCC[C@H]21)S(=O)(=O)c1cccc2c1OCO2)=N/O |  | Ki | HIV-1 | fluorescence | Protease |  | <0.001 µM
CC(=O)c1cc(C)n(-c2ccc(C(=O)O)c(O)c2)c1-c1ccccc1 |  | IC50 | HIV-1 | fluorescence | gp41 |  | 500 µg/mL
O=C1O[C@H]2[C@@H]3OC(=O)c4cc(O)c(O)c(O)c4-c4c(cc(O)c(O)c4O)C(=O)OC[C@H]2O[C@@H](OC(=O)c2cc(O)c(O)c(O)c2)[C@@H]3OC(=O)c2cc(O)c(O)c3c2[C@@H]2C1=CC(=O)[C@](O)(O3)C2(O)O |  | IC50 | HIV-1 | ELISA | gp120 + CD4 |  | 0.48 µg/mL
CC(C)(CS(=O)(=O)[O-])[NH2+]C(=O)C(CC(F)(OC(F)(F)C(F)(OC(F)(F)C(F)(OC(F)(F)C(F)(F)C(F)(F)F)C(F)(F)F)C(F)(F)F)C(F)(F)F)C(F)(OC(F)(F)C(F)(OC(F)(F)C(F)(OC(F)(F)C(F)(F)C(F)(F)F)C(F)(F)F)C(F)(F)F)C(F)(F)F | 20 µg/mL | inhibition | HIV-1 | ELISA | gp120 |  | 76%
O=C(OC[C@H]1O[C@@H](O)[C@@H]2OC(=O)c3cc(O)c(O)c(O)c3-c3c(cc(O)c(O)c3O)C(=O)O[C@H]2[C@@H]1OC(=O)c1cc(O)c(O)c(O)c1Oc1cc2c(c(O)c1O)-c1c(cc(O)c(O)c1O)C(=O)O[C@@H]1[C@@H](OC2=O)[C@H](OC(=O)c2cc(O)c(O)c(O)c2)O[C@@H]2COC(=O)c3cc(O)c(O)c(O)c3-c3c(cc(O)c(O)c3O)C(=O)O[C@@H]12)c1cc(O)c(OC(=O)c2cc(O)c(O)c(O)c2)c(O)c1 | 12.5 µg/mL | inhibition | HIV-1 | binding | gp120 |  | 81%
Cc1ccc(Cl)cc1Nc1nc(C(F)(F)F)ccc1C(=O)NN1CCN(c2cccc(Cl)c2)CC1 |  | fold resistance | HIV-1 | RNase H / absorbance | RNase H | K103N | 2.3
CC(C)NC(=O)NCCCCC(C)(C)CN(C[C@@H](O)[C@H](Cc1ccccc1)NC(=O)O[C@H]1CO[C@H]2OCC[C@H]21)S(=O)(=O)c1cccc2c1OCCO2 |  | Ki | HIV-1 | fluorescence | Protease |  | <0.001 µM
CC(C)(C)C(=O)c1cn2c(c(O)c1=O)C(=O)N(CCCc1c(F)cccc1Cl)CC2 |  | IC50 | HIV-1 | ELISA | Integrase |  | <0.01 µM
Cc1cc(C(=O)c2ccccc2)c(-c2ccccc2)n1-c1ccc(C(=O)O)c(O)c1 |  | IC50 | HIV-1 | fluorescence | gp41 |  | 41.1 µg/mL
CC(=O)NCCCC(C)(C)CN(C[C@@H](O)[C@H](Cc1ccccc1)NC(=O)O[C@H]1CO[C@H]2OCC[C@H]21)S(=O)(=O)c1ccc2c(c1)OCO2 |  | Ki | HIV-1 | fluorescence | Protease |  | <0.001 µM
COC(=O)c1cc(C)n(-c2ccc(C(=O)O)c(O)c2)c1-c1ccccc1 |  | IC50 | HIV-1 | fluorescence | gp41 |  | 500 µg/mL
CCCNC(=S)NCCCC(C)(C)CN(C[C@@H](O)[C@H](Cc1ccccc1)NC(=O)O[C@H]1CO[C@H]2OCC[C@H]21)S(=O)(=O)c1ccc2c(c1)OCO2 |  | Ki | HIV-1 | fluorescence | Protease |  | <0.001 µM
O=CC(O)C(OC(=O)c1cc(O)c(O)c(O)c1)C1OC(=O)c2cc(O)c(O)c(O)c2-c2c(cc(O)c(O)c2O)C(=O)OCC1O |  | IC50 | HIV-1 | antigen | Capsid |  | 6 µg/mL
COC(=O)NCCCCC(C)(C)CN(C[C@@H](O)[C@H](Cc1ccccc1)NC(=O)O[C@H]1CO[C@H]2OCC[C@H]21)S(=O)(=O)c1ccc(N)cc1 |  | Ki | HIV-1 | fluorescence | Protease |  | <0.001 µM
CCCC[C@@H](CN[C@@H](CCC(N)=O)C(=O)N[C@@H](CCCN=C(N)N)C(N)=O)NC(=O)[C@H](CCCC)NC(=O)C(NC(=O)C(NC(C)=O)[C@@H](C)O)[C@@H](C)CC |  | IC50 | HIV | HPLC | Protease | PR-V82S | >2.17 µM
CCCCOC(=O)NCCCCC(C)(C)CN(C[C@@H](O)[C@H](Cc1ccccc1)NC(=O)O[C@H]1CO[C@H]2OCC[C@H]21)S(=O)(=O)c1ccc2c(c1)OCO2 |  | Ki | HIV-1 | fluorescence | Protease |  | <0.001 µM
O=CC1OC(=O)c2cc(O)c(O)c(O)c2Oc2cc3c(c(O)c2O)-c2c(cc(O)c(O)c2O)C(=O)OCC2OC(OC(=O)c4cc(O)c(O)c(O)c4Oc4cc5c(c(O)c4O)-c4c(cc(O)c(O)c4O)C(=O)OC(C(O)COC5=O)C1OC(=O)c1cc(O)c(O)c(O)c1)C(OC(=O)c1cc(O)c(O)c(O)c1)C(OC(=O)c1cc(O)c(O)c(O)c1)C2OC3=O | 6.25 µg/mL | inhibition | HIV-1 | binding | gp120 |  | 64.7%
CCN(CC)C(=O)NCCC(C)(C)CN(C[C@@H](O)[C@H](Cc1ccccc1)NC(=O)O[C@H]1CO[C@H]2OCC[C@H]21)S(=O)(=O)c1ccc2c(c1)OCO2 |  | Ki | HIV-1 | fluorescence | Protease |  | <0.001 µM
COC(=O)Cc1cn2ccn(Cc3cccc(Cl)c3)c(=O)c2c(O)c1=O |  | IC50 | HIV-1 | ELISA | Integrase |  | 0.01–0.1 µM
CCOC(=O)C(=O)CC(=O)/C=C/c1cccn1Cc1ccccc1Cl |  | IC50 | HIV-1 | RNase H / absorbance | RNase H |  | 8.5 µM

A second listing of 2 rows from above:

structure	dose	measure	agent	method	protein	changes	result
CC(C)(CS(=O)(=O)[O-])[NH2+]C(=O)C(CC(F)(OC(F)(F)C(F)(OC(F)(F)C(F)(OC(F)(F)C(F)(F)C(F)(F)F)C(F)(F)F)C(F)(F)F)C(F)(F)F)C(F)(OC(F)(F)C(F)(OC(F)(F)C(F)(OC(F)(F)C(F)(F)C(F)(F)F)C(F)(F)F)C(F)(F)F)C(F)(F)F	20 µg/mL	inhibition	HIV-1	ELISA	gp120		76%
CCCNC(=S)NCCCC(C)(C)CN(C[C@@H](O)[C@H](Cc1ccccc1)NC(=O)O[C@H]1CO[C@H]2OCC[C@H]21)S(=O)(=O)c1ccc2c(c1)OCO2		Ki	HIV-1	fluorescence	Protease		<0.001 µM

Fold resistance has wild type as its base. Percent inhibition refers to the dose given; in toxicity tests it is the harm to the cells. ICn is the concentration giving n% inhibition. a–b is a range or a potency band. Rows are shuffled and stem from different studies.